Laboratory results as given in PubChem BioAssay AID504637 (National Center for Advancing Translational Sciences (NCATS), 2011).
This is a selection; strong and weak results do not stand in their true shares. Records with an inconclusive call do not appear. Calls of active or inactive are those of the source. The call rests on the fitted dose curve; in most records, active means well fitted inhibition curve with a large enough effect; inconclusive means small, poorly fitted or top-dose-only effect, or effect the other way; inactive means flat fitted curve, though single readings scatter.

Amino acid sequences for entries named in this document (tags omitted). A change or cut given only in a name is not applied to a line headed by its entry.
UniProt O15648: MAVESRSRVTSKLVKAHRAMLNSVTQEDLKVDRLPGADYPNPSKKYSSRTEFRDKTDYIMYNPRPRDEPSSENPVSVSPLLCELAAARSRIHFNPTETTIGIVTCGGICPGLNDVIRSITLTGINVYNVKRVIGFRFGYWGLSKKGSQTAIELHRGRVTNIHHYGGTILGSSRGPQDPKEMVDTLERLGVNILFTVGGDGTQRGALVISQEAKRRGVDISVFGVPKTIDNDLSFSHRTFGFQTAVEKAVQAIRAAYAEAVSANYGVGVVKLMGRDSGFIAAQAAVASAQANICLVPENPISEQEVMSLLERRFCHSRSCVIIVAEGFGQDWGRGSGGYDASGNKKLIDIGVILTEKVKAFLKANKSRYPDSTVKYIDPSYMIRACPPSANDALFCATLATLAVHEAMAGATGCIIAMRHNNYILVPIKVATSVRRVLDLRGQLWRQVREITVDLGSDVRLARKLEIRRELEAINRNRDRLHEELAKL

Biological target: ATP-dependent 6-phosphofructokinase (Trypanosoma brucei brucei) (UniProt O15648)
Test: Inhibitors of T. brucei phosphofructokinase: Hit Validation; further: nearly all actives have a fitted effect of over 60% in size
Conditions: purified T. brucei PFK, ADP-Glo luminescence, 45 min
Excerpt: NCGC Assay Overview: Various species of the protozoan family Trypanosomatidae are responsible for a range of serious human diseases in tropical and subtropical areas of the world. […] Many of the disorders caused by trypanosomatids are fatal if left untreated, but most currently used drugs are inefficient and toxic. […] Oxidative metabolism involving the mitochondrial tricarboxylic acid cycle and oxidative phosphorylation are repressed in these parasites, and recent RNA interference (RNAi) experiments have shown that even partial depletion of certain individual glycolytic enzymes can lead to the death of cultured parasites. […] A luminescence-based assay for T. brucei PFK activity has been developed which uses luciferase to detect production of ADP. […] To directly measure the ADP product of the PFK reaction, we used the ADP-Glo detection kit (Promega), which utilizes two separate reactions to 1) deplete all remaining uncatalyzed ATP and 2) convert all remaining ADP to ATP, which is then detected through a traditional luciferase-coupled reaction. […]
NCGC Assay Protocol Summary: Substrate buffer was dispensed into white, solid 1536-well plates at 3uL/well in 0.1M triethanolamine (TEA) buffer, pH 8.0, containing final concentrations of 5 mM MgCl2, 0.01% Tween20, 0.5 mM fructose-6-phosphate (F6P) and 0.1mM ATP. […] The %Activity was determined from the corrected luminescence values. […]
Potency means the concentration at half of the fitted maximal effect.

Structure (SMILES)	Potency
O=P(Nc1nccs1)(c1ccccc1)c1nc2ccccc2s1 (stereo unspecified)	active: 19 µM
